# Measured values reported in patent publication US20260069590A1, “METHOD FOR TREATING NONTUBERCULOUS MYCOBACTERIAL INFECTION” (priority 2022, published 2026).
# Experiment: Safety and tolerability of clofazimine delivered by nebulization in healthy subjects
# Settings: single and daily repeated doses for 7 days up to 90 mg, inhaled
compound,measurement,value
"CC(C)/N=c1\cc2n(-c3ccc(Cl)cc3)c3ccccc3nc-2cc1Nc1ccc(Cl)cc1 [Clofazimine, N,5-bis(4-chlorophenyl)-3-propan-2-yliminophenazin-2-amine]","tolerability, serious adverse-effects",well tolerated with no serious adverse-effects
